In article PMC6268061, “Investigation of the Biological Properties of (Hetero)Aromatic Thiosemicarbazones” (Molecules, 2012):

Assay: Isosbestic point determination, UV-VIS spectra with Fe3+ (iron chelation)
Type: physicochemical
Conditions: compound in DMSO with FeCl3

Compound	Interaction with Fe3+ (isosbestic points observable)	Isosbestic point of complexes with iron
CNC(=S)NN=Cc1c(O)ccc2cccnc12 [Compound 4i]	less visible points	–
NC(=S)N/N=C/c1cccc(Cl)c1Cl [Compound 3a, (E)-2-(2,3-Dichlorobenzylidene)hydrazinecarbothioamide]	inactive	–
CN(C)C(=S)NN=Cc1c(O)ccc2cccnc12 [Compound 4j]	–	330 nm and 385 nm
CN(C)C(=S)NN/C=C/c1ccc2ccccc2n1 [Compound 4b, (E)-2-(Quinolin-2-ylvinyl)-N,N-dimethylhydrazinecarbothioamide]	–	375 nm
CN(C)C(=S)N/N=C/c1ccc(Br)cc1 [Compound 3m, (E)-2-(4-bromobenzylidene)-N,N-dimethylhydrazinecarbothioamide]	inactive	–

Where “and” joins values, the source holds several entries; their conditions need not be identical. Equal entries are not always repeated.
